Anti-infective test results gathered from many reports (values: NIAID ChemDB through PubChem).

Common to all: cytotoxicity tests; cell line: THP-1; read-out: CC50

An empty or dashed field is not shown. CCn is the concentration with n% toxicity to the cells. Neighbouring rows are from separate reports.

{"SMILES": "CCSc1n[nH]c(-c2cccc(C(F)(F)F)c2)n1", "value": "57.4 µg/mL"}
{"SMILES": "COc1ccc(OC)c2c1ccn2CCBr", "value": "0.011 µM"}
{"SMILES": "O=C(c1ccc2ccccc2n1)N1CCCC1", "method": "WST", "value": ">100 µM"}
{"SMILES": "Cc1cccc(-c2nc(=S)[nH][nH]2)c1", "method": "MTT", "value": ">100 µg/mL"}
{"SMILES": "[N-]=[N+]=NCCn1ccc2c(O)ccc(O)c21", "value": "0.817 µM"}
{"SMILES": "C#CCSc1n[nH]c(-c2ccco2)n1", "value": ">100 µg/mL"}
{"SMILES": "O=C(Nc1ccccc1C(F)(F)F)c1c(O)ccc2ccccc12", "value": ">20 µM"}
{"SMILES": "FC(F)(F)c1ccc(-c2nc(=S)[nH][nH]2)cc1", "method": "MTT", "value": "65.68 µg/mL"}
{"SMILES": "C=CCSc1n[nH]c(-c2cccc(C(F)(F)F)c2)n1", "value": ">100 µg/mL"}
{"SMILES": "C#CCS(=O)(=O)c1nc(-c2ccc([N+](=O)[O-])c(C(F)(F)F)c2)n[nH]1", "method": "MTT", "value": ">100 µg/mL"}
{"SMILES": "O=C1c2cc3ncsc3cc2C2=NCCn3ccc1c32", "value": "0.083 µM"}
{"SMILES": "Cc1cc(Cl)ccc1-c1nc(=S)[nH][nH]1", "method": "MTT", "value": "98.12 µg/mL"}
{"SMILES": "C=CCSc1n[nH]c(-c2cccc([N+](=O)[O-])c2C)n1", "value": ">100 µg/mL"}
{"SMILES": "COc1ccc(OC)c2[nH]ccc12", "value": "0.392 µM"}
{"SMILES": "C#CCSc1n[nH]c(-c2cccc(C(F)(F)F)c2)n1", "method": "MTT", "value": ">100 µg/mL"}

Again, the opening 2 rows:

SMILES | method | value
CCSc1n[nH]c(-c2cccc(C(F)(F)F)c2)n1 |  | 57.4 µg/mL
COc1ccc(OC)c2c1ccn2CCBr |  | 0.011 µM